Anti-infective test results gathered from many reports (values: NIAID ChemDB through PubChem).

Shared fields: whole-cell or culture tests; organism: HIV-1; endpoint: EC50

ECn: concentration that inhibits the pathogen or its effect by n%. An empty or dashed field is not shown. Conditions beyond the fields shown may differ between rows.

smiles,strain,changes,read by,value
CN1N=C(N)c2cn([C@@H]3O[C@H](COP(=O)(O)O)[C@@H](O)[C@H]3O)c3ncnc1c23,IIIB,,XTT,0.01 µg/mL
Nc1ccn([C@H]2CC[C@@H](CO)O2)c(=O)n1,NL4-3,H258Q,β-galactosidase,0.381 µM
CCCCN1C(=O)N(Cc2ccc3[nH]nc(N)c3c2)[C@H](Cc2ccccc2)[C@H](O)[C@@H](O)[C@H]1Cc1ccccc1,RF,,,<0.056 µM
O=c1[nH]c(SCc2cn[nH]n2)nc(-c2ccc(I)cc2)c1Cl,IIIB,,,0.9 µg/mL
C=C(C)[C@@H]1CC[C@]2(C(=O)NCCC(C)(C)C)CC[C@]3(C)[C@H](CC[C@@H]4[C@@]5(C)CC[C@H](OC(=O)CC(C)(C)C(=O)O)C(C)(C)[C@@H]5CC[C@]43C)[C@@H]12,NL4-3,V370A,absorbance,0.125 µM
COC(=O)c1cc2c(OC)cc(N)cc2[nH]1,,,p24,1.09 µg/mL
CCOC1(C(F)(F)F)OC(=O)Nc2ccc(Cl)cc21,,RT-K103N,,<0.1392 µM
COc1cc(N)cc2[nH]c(N)cc(=O)c12,,,p24,0.08 µg/mL
CCCc1cc(=O)oc2c3c(c4c(c12)OC(C)(C)CC4)O[C@H](C)[C@@H](C)C3=O,IIIB,,cytopathic effect / XTT,1.47 µM
O=C1Nc2ccc(F)c(F)c2C(C#Cc2ccco2)(C(F)(F)F)O1,,RT-K103N,,<0.0593 µM
O=c1[nH]c(SCc2cn[nH]n2)nc(-c2ccccc2)c1Cl,ADA5,,,1.2 µg/mL
CCCCOC1(C(F)(F)F)OC(=O)Nc2ccc(Cl)cc21,,,,<0.01019 µM
COC(=O)Cc1cnc2cc(N)cc(OC)c2c1,,,p24,0.71 µg/mL
C/C=C/COC1(C(F)(F)F)OC(=O)Nc2ccc(Cl)cc21,,,,<0.0056 µM
COC(=O)c1ccc2cc(OC)cc(N)c2n1,,,p24,0.21 µg/mL
C=CCCOC1(C(F)(F)F)OC(=O)Nc2ccc(Cl)cc21,,,,<0.01368 µM
COC(=O)c1cc2c(OC)cc(N)cc2o1,,,p24,2.06 µg/mL
C=CCOC1(C(F)(F)F)OC(=O)Nc2ccc(Cl)cc21,,,,<0.0039 µM
COc1ccc(N(CC(=O)NCCCc2ccccc2)S(=O)(=O)c2ccc(Cl)c([N+](=O)[O-])c2)cc1,IIIB,,,37 µM

The first 2 rows once more:

| smiles | strain | changes | read by | value |
|---|---|---|---|---|
| CN1N=C(N)c2cn([C@@H]3O[C@H](COP(=O)(O)O)[C@@H](O)[C@H]3O)c3ncnc1c23 | IIIB |  | XTT | 0.01 µg/mL |
| Nc1ccn([C@H]2CC[C@@H](CO)O2)c(=O)n1 | NL4-3 | H258Q | β-galactosidase | 0.381 µM |